Reference: PMC5938747

Key:
[1] = tested on: Nc1ccn([C@@H]2O[C@H](COP(=O)(O)OP(N)(=O)O)[C@@H](O)[C@H]2O)c(=O)n1; test: purified protein; details: 10 mM ATP, pH 8.0, 25 °C
[2] = tested on: Nc1ncnc2c1ncn2[C@@H]1O[C@H](COP(=O)(O)OP(=O)(O)OP(=O)(O)O)[C@@H](O)[C@H]1O; test: purified protein; details: 15 mM CDP-NH2, pH 8.0, 25 °C

“Cj1415 (cytidine diphosphoramidate kinase, CDK) (Campylobacter jejuni subsp. jejuni NCTC 11168 = ATCC 700819; S85A)” gave a Km [1] of 4400 ± 400 µM, a kcat [1] of 1.6 s⁻¹ and a kcat/Km [1] of 360 M⁻¹ s⁻¹. For the same substance, the Km [2] was 700 ± 100 µM, the kcat [2] was 1.6 s⁻¹ and the kcat/Km [2] was 2300 M⁻¹ s⁻¹.
